{"source": "paper PMC9816411", "about": "“Host-derived chimeric peptides clear the causative bacteria and augment host innate immunity during infection: A case study of HLB in citrus and fire blight in apple” (Frontiers in Plant Science, 2022)", "test_system": "E. coli strain BL21 (and, in some cases, ATCC25922)", "conditions": "5 × 10^5 cfu, 24 h incubation (b9; method b42: 10^5 cells/ml, 16 h at 37°C, Mueller Hinton II broth), 96-well serial dilution 0.02–20 μM, OD/cfu, title says micromolars"}
{"molecule": "CC(C)C[C@@H]1NC(=O)[C@H](CCCNC(=N)N)NC(=O)[C@H](CCCNC(=N)N)NC(=O)[C@@H](NC(=O)[C@@H](N)CCCCN)CSSC[C@@H](C(=O)N[C@@H](CCCNC(=N)N)C(=O)NCC(=O)N[C@@H](CCCNC(=N)N)C(=O)N[C@@H](CCC(N)=O)C(=O)O)NC(=O)[C@H](Cc2ccc(O)cc2)NC(=O)[C@H]([C@@H](C)O)NC(=O)[C@H](C(C)C)NC(=O)[C@@H]2CSSC[C@H](NC1=O)C(=O)N[C@@H](Cc1ccc(O)cc1)C(=O)N[C@@H](CCCCN)C(=O)N[C@@H](CCC(N)=O)C(=O)N[C@@H](CCCNC(=N)N)C(=O)N2", "note": "[L19GA]", "values": [{"measurement": "MIC", "value": "1.25 to 2.5", "unit": "µM"}]}
{"molecule": "IERSRNLDWYKGPTLLDALKNLNEGKR [I27AB]", "values": [{"measurement": "MIC", "value": ">20", "unit": "µM"}]}
